Some results are limits rather than exact numbers.

For assay [1], the system named is H5N1 pseudovirus.
Assay [2] relates to HIV pseudovirus. The following applies: 0.035 mM, 1 h.
Assay [3] concerns H7N9 pseudovirus. The conditions noted are these: 0.035 mM, 1 h.
Assay [4] relates to SARS-CoV-2 pseudovirus. The conditions noted are these: 0.035 mM, 1 h.
Assay [5] concerns SARS-CoV-2 pseudovirus, Staphylococcus aureus, Escherichia coli and hepatic stellate cells. Format: cell-based.

Take “octacosanoic acid-serum albumin complex: serum albumin grafted with octacosanoic acid (method of Example 1)”: the neutralization inhibition rate in assay [1] amounted to 53%. The IC50 in assay [1] (read-out: median inhibition concentration (presumed)) is approximately 9 µM.
“ALA-HSA: serum albumin grafted with linolenic acid by amide bonds (Example 1)”: the “Sterilization rate (%)” value is more than 99.9% in assay [2]; more than 99.9% in assay [1] (0.035 mM, 1 h); more than 99.9% in assay [3]; more than 99.9% in assay [4].
Take “DHA-HSA: serum albumin grafted with docosahexaenoic acid (Example 1)”: in assay [5], the “absorption of DiI-labelled complex by receptors of different size (fluorescence intensity)” value is reported as “smaller individuals can more rapidly absorb”.

The values above are taken from patent US20260166162A1, “CARBON CHAIN SUBSTANCE FOR REGULATING TRANSMEMBRANE TRANSPORT AND FLUIDITY OF CELL MEMBRANES, AND PREPARATION AND USE THEREOF” (priority 2022, published 2026).
